Taken from: PubChem BioAssay AID504761 (Drosophila RNAi Screening Center, 2011)

Test: 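Insect host genes that dengue virus relies on to spread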 (primary screen)
System: D.Mel-2 cells from Drosophila
Knock-down reagent: long dsRNA against Drosophila genes
Conditions: infection with dengue virus type 2; dose and infection time not stated
Measured: 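Cells stained for dengue envelope protein and imaged; percent of infected cells per well on duplicate plates, ranked by infection, with stained nuclei counted for cell number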
Reading the numbers: infection score: higher = more virus-infected cells; cell count: higher = more cells in the well
Active means: 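Low infection ranks in the two replicates (chance level up to 0.065) followed by a retest with a 1.5-fold or larger significant decrease, p below 0.05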
Calls: active = confirmed: knock-down lowers infection; inactive = not picked or not confirmed
The screen tested about 22,000 reagents; this is a random part of those that have a named target and a result. Of all reagents, 116 (0.52%) are marked active. 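Calls depend on retest data that are not deposited; infection was ranked per plate without normalising between plates; the unit of the infection score is not given.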 Raw values are not corrected between plates. Not all columns of the deposit are shown. Not given: the amount of reagent, the time to read-out.

What is on record for CG30383 [SID104184854]?
infection score, replicate 1: 2.16; cell count, replicate 1: 6218; activity call: inactive

What is on record for CG13784 [SID104180766]?
infection score, replicate 1: 1.09; cell count, replicate 1: 5400; activity call: inactive

Which result is listed for lncRNA:CR32657 [SID104199195]?
infection score, replicate 1: 2.43; cell count, replicate 1: 6792; activity call: inactive

How did the screen score lncRNA:CR32657 [SID104204297]?
infection score, replicate 1: 2.06; cell count, replicate 1: 6077; activity call: inactive

Which result is listed for pug [SID104196828]?
infection score, replicate 1: 6.84; cell count, replicate 1: 6154; activity call: inactive

What did the screen give for pug [SID104208440]?
infection score, replicate 1: 24.3; cell count, replicate 1: 5887; activity call: inactive

With thoc6 [SID104190320], how do the results read?
infection score, replicate 1: 2.86; cell count, replicate 1: 5989; activity call: inactive

For mmy [SID104181794], how do the results read?
infection score, replicate 1: 1.89; cell count, replicate 1: 5931; activity call: inactive

Which result is listed for y [SID104198645]?
infection score, replicate 1: 6.84; cell count, replicate 1: 6715; activity call: inactive

With KFase [SID104183050], what was measured?
infection score, replicate 1: 2.38; cell count, replicate 1: 6434; activity call: inactive

How did the screen score KFase [SID104208579]?
infection score, replicate 1: 4.61; cell count, replicate 1: 6319; activity call: inactive

For CG14346 [SID104180168], what was measured?
infection score, replicate 1: 1.26; cell count, replicate 1: 6274; activity call: inactive

What did the screen give for CG14346 [SID104206099]?
infection score, replicate 1: 6.11; cell count, replicate 1: 6711; activity call: inactive

Look-ups from the list.
Value for KFase [SID104183050] under “cell count, replicate 1”: 6434
Value of CG30383 [SID104184854] under “cell count, replicate 1”: 6218

The listing continues:
With CG14258 [SID104194545], how do the results read?
infection score, replicate 1: 1.75; cell count, replicate 1: 6124; activity call: inactive

With Prp18 [SID104196594], how do the results read?
infection score, replicate 1: 3.6; cell count, replicate 1: 5310; activity call: inactive

With Fgop2 [SID104181808], what does the deposit list?
infection score, replicate 1: 6.28; cell count, replicate 1: 6461; activity call: inactive

With CG31636 [SID104182068], what does the deposit list?
infection score, replicate 1: 3.87; cell count, replicate 1: 5376; activity call: inactive

For CG31636 [SID104203475], what does the deposit list?
infection score, replicate 1: 3.38; cell count, replicate 1: 6210; activity call: inactive

For Dgkepsilon [SID104187191], what was measured?
infection score, replicate 1: 9.68; cell count, replicate 1: 6745; activity call: inactive

What is on record for p38c [SID104202296]?
infection score, replicate 1: 0.72; cell count, replicate 1: 6645; activity call: inactive

With Notum [SID104189751], what was measured?
infection score, replicate 1: 1.69; cell count, replicate 1: 6105; activity call: inactive
